pKd: −log10 of the molar value. For at least one entry, the source does not settle the construct or the ends of the probe.
Test system: alpha-TatR 3 (Tat 47-57 peptide)
Assay: FP
Conditions: 50 mM Tris-HCl pH 7.4, 20 mM KCl, 0.02% Tween20, room temp; synthetic protein; protein details: synthetic peptide; label: fluorescein

GGCAGAUCUGAGCCUGGGAGCUCUCUGCC [wild-type TAR RNA]
pKd: 8.74

Reference: US20050064470A1, “High throughput screening methods for identifying RNA binding compounds” (priority 2003, published 2005)
